A mixed list of measured activities; the numbers were collected in NIAID ChemDB.

Common to all: growth or infection tests; agent: Cryptococcus neoformans

Conditions beyond the fields shown may differ between rows. MIC50, MIC90 and the like: level of inhibition, or share of isolates inhibited. An empty or dashed field is not shown. ECn is the concentration giving n% inhibition of infection, replication or growth.

COc1ccccc1CC(Cc1ccc(-c2ccccc2)cc1)n1ccnc1 ; read-out: MIC ; result: 5.5 µM
CC(=O)C[C@H]1C[C@H]2[C@H]([C@@H]3c4[nH]c5ccccc5c4CCN13)[C@H](O)C13CC/C=C\CCCCN1CC21CC/C=C\CCCNC13 ; read-out: MIC ; result: >20 µg/mL
CCCCCCCCOc1ccc(C(=O)NC2C[C@@H](O)[C@@H](O)NC(=O)C3[C@@H](O)[C@@H](C)CN3C(=O)C(C(C)O)NC(=O)C([C@H](O)[C@@H](O)c3ccc(O)cc3)NC(=O)C3C[C@@H](O)CN3C(=O)C(C(C)O)NC2=O)cc1 ; strain: MY1146 ; read-out: MIC ; result: >128 µg/mL
C/C(=C\C(=O)CCCCCCCCC(=O)O)C[C@@H]1OC[C@H](C[C@H]2O[C@H]2[C@@H](C)[C@H](C)O)[C@@H](O)[C@H]1O ; read-out: MIC ; result: 250 µg/mL
CCN(CC)C(=O)SCC(=O)NC1C(=O)N2C(C(=O)O)=C(COC(C)=O)CSC12 ; read-out: MIC ; result: 63 µg/mL
O=[N+]([O-])c1ccc(CC(c2cccs2)n2ccnc2)cc1 ; read-out: MIC ; result: 37.5 µM
C=C1/C=C(\C)[C@H](CC)OC(=O)[C@H](C)C(=O)C(O)(CO)C/C(C)=C/[C@@H](C)C1 ; strain: MY2062 ; read-out: MIC ; result: 12.5 µg/mL
CSC1NN=C(c2snnc2C)N1C1C2CC3CC(C2)CC1C3 ; strain: PLM 589 ; read-out: MIC ; result: 12.5 µg/mL
C[C@@H](n1ncn(-c2ccc(OCC(F)(F)C(F)F)cc2)c1=O)[C@](O)(Cn1cncn1)c1ccc(F)cc1F ; strain: DUMC 133.95 ; read-out: MIC ; result: 0.5 µg/mL
Cc1onc(-c2nn(C)c(C)c2[N+](=O)[O-])c1[N+](=O)[O-] ; read-out: MFC ; result: >200 µM
C[C@H]1N(C(=O)c2ccc(C(F)(F)F)cc2)CCO[C@@]1(Cn1cncn1)c1ccc(F)cc1F ; strain: 89-127 ; read-out: MIC ; result: 0.5 µg/mL
Cn1ccc(C(Cc2ccc(Cl)cc2)n2ccnc2)c1 ; read-out: MIC ; result: 75 µM
CC(=O)OCC1=C(C(=O)O)N2C(=O)C(NC(=O)CSC(=S)N3CCCC3)C2SC1 ; read-out: MIC ; result: 250 µg/mL
Cc1cc(-c2nn(CCO)c(C)c2N=O)no1 ; read-out: MFC ; result: 22 µM
Cc1cc(NC(=O)c2ccc(NC(=O)COc3ccccc3C)cc2)no1 ; strain: ATCC90112 ; read-out: MIC ; result: >100 µg/mL
CC(=O)OCC1=C(C(=O)O)N2C(=O)C(NC(=O)CC(=O)N(C)c3ccccc3)C2SC1 ; read-out: MIC ; result: >250 µg/mL
Cc1cc(NC(=O)c2ccc(NC(=O)COc3ccc(Cl)cc3)cc2)no1 ; strain: ATCC90112 ; read-out: MIC ; result: >100 µg/mL
CCN(CC)C(=S)SCC(=O)NC1C(=O)N2C(C(=O)O)=C(COC(C)=O)CSC12 ; read-out: MIC ; result: 250 µg/mL
Cn1cccc1C(Cc1ccc([N+](=O)[O-])cc1)n1ccnc1 ; read-out: MIC ; result: 300 µM
C[C@H]1[C@H](O)[C@@H](C)/C=C/C=C/C=C/C=C/C=C/C=C/C=C/[C@H](O[C@@H]2O[C@H](C)[C@@H](O)[C@H](N)[C@@H]2O)C[C@@H]2O[C@](O)(C[C@@H](O)C[C@@H](O)CC[C@H](O)[C@@H](O)C[C@@H](O)CC(=O)O[C@H]1C)C[C@H](O)[C@H]2C(=O)O ; strain: ATCC 32608 ; read by: broth dilution ; read-out: MIC ; result: 0.05 µM
OC(Cn1cncn1)(Cn1cncn1)c1ccc(F)cc1F ; strain: CNCYP51 ; read-out: MIC80 ; result: 13.45 µg/mL
CCN1CCC(n2cc(-c3nc(-c4ccc(OC)cc4)n[nH]3)nn2)CC1 ; read by: agar ; read-out: MIC ; result: >200 µg/mL
CN[C@@H]1[C@H](O[C@@H]2OC[C@@H](O)[C@H](O)[C@H]2O)[C@@H](O)[C@H](O[C@H]2c3cc(C)c(C(=O)N[C@H](C)C(=O)O)c(O)c3-c3c(cc4c(c3O)C(=O)c3cc(OC)c(I)c(O)c3C4=O)[C@@H]2O)O[C@@H]1C ; strain: IAM 4514 ; read-out: MIC ; result: >100 µg/mL
Clc1ccc(CC(Cc2ccc(-c3ccccc3)cc2)n2ccnc2)cc1 ; read-out: MIC ; result: 5.5 µM
Clc1ccc(CN(Cc2ccc(-c3ccccc3)cc2)n2ccnc2)c(Cl)c1 ; read-out: MIC ; result: 2.5 µM
CCCCCCCCCCCCCCCC(=O)NC1CC(O)C(O)NC(=O)C2C(O)C(C)CN2C(=O)C(C(O)CC(N)=O)NC(=O)C(C(O)C(O)c2ccc(O)c(OS(=O)(=O)O)c2)NC(=O)C2CC(O)CN2C(=O)C(C(C)O)NC1=O ; strain: YC203 ; read-out: MIC50 ; result: >2.5 µg/mL
Clc1ccc(CN(Cc2ccc(-c3ccccc3)cc2)n2ccnc2)c(Cl)c1 ; read-out: MIC ; result: 2.5 µM
c1ccc(-c2n[nH]c(-c3cn(C4CCNCC4)nn3)n2)cc1 ; read by: agar ; read-out: MIC ; result: 60 µg/mL
O=C1S/C(=C\c2ccccc2)C(=O)N1CC(O)(Cn1nccn1)c1ccc(F)cc1F ; strain: CNCYP51 ; read-out: MIC80 ; result: 36.16 µg/mL
Cc1cc(NC(=O)c2ccccc2NC(=O)COc2ccc(Cl)cc2Cl)no1 ; strain: ATCC90112 ; read-out: MIC ; result: >100 µg/mL
CCCCCOc1ccc(-c2ccc(-c3ccc(C(=O)N[C@H]4C[C@@H](O)[C@@H](O)NC(=O)[C@@H]5[C@@H](O)[C@@H](C)CN5C(=O)[C@H]([C@H](C)O)NC(=O)[C@H]([C@H](O)[C@@H](O)c5ccc(O)cc5)NC(=O)[C@@H]5C[C@@H](O)CN5C(=O)[C@H]([C@H](C)O)NC4=O)cc3)cc2)cc1 ; strain: 15 isolates ; read-out: MIC50 ; result: >10.24 µg/mL
C[C@@H](SC1COC(/C=C/C=C/c2ccc(C#N)cc2F)OC1)[C@](O)(Cn1cncn1)c1ccc(F)cc1F ; strain: TIMM0362 ; read-out: MIC ; result: ≤0.008 µg/mL
CCC(=O)N1CCC(n2cc(-c3nc(-c4ccc(C)cc4)n[nH]3)nn2)CC1 ; read by: agar ; read-out: MIC ; result: >200 µg/mL
CCC(C)CC(C)/C=C(C)/C=C/CC(C)C(O)C(C)/C=C(C)/C=C/C(O)C(C)c1cc(O)c(C2OC(CO)CC(O)C2O)c(=O)o1 ; strain: TIMM0362 ; read-out: MIC80 ; result: 1.56 µg/mL
CC(=O)OCC1=C(C(=O)O)N2C(=O)C(NC(=O)CSC(=S)N3CCOCC3)C2SC1 ; read-out: MIC ; result: 63 µg/mL
C[C@H]1[C@H](O)[C@@H](C)/C=C/C=C/C=C/C=C/C=C/C=C/C=C/[C@H](O[C@@H]2O[C@H](C)[C@@H](O)[C@H](N)[C@@H]2O)C[C@@H]2O[C@](O)(C[C@@H](O)C[C@@H](O)CC[C@H](O)[C@@H](O)C[C@@H](O)CC(=O)O[C@H]1C)C[C@H](O)[C@H]2C(=O)O ; strain: TIMM0354 ; read-out: MIC ; result: 0.25 µg/mL
CCC(C)CC(C)CCCCCCCCC(=O)NC1C[C@H](O)[C@@H](O)NC(=O)[C@@H]2[C@@H](O)[C@@H](C)CN2C(=O)[C@H]([C@H](O)CC(N)=O)NC(=O)[C@H](C(O)[C@H](O)c2ccc(O)cc2)NC(=O)[C@@H]2C[C@@H](O)CN2C(=O)[C@H]([C@@H](C)O)NC1=O ; strain: MY1051 ; read-out: MIC ; result: >128 µg/mL
Cn1cccc1C(Cc1ccc(Cl)cc1Cl)n1ccnc1 ; read-out: MIC ; result: 75 µM
Cc1ccccc1CC(Cc1ccc(-c2ccccc2)cc1)n1ccnc1 ; read-out: MFC ; result: 33 µM
Cc1ccc(OCC(=O)Nc2ccccc2C(=O)Nc2cc(C)on2)cc1 ; strain: ATCC90112 ; read-out: MIC ; result: >100 µg/mL
CN[C@H]1CC[C@@H](c2ccc(Cl)c(Cl)c2)c2ccccc21 ; strain: C23 ; read by: broth dilution ; read-out: MIC90 ; result: 5 µg/mL
Clc1ccc(CC(c2cccs2)n2ccnc2)cc1 ; read-out: MIC ; result: 19 µM
CN(C)c1ccc(/C=C2\SC(=O)N(CC(O)(Cn3nccn3)c3ccc(F)cc3F)C2=O)cc1 ; read-out: MIC80 ; result: 8.24 µg/mL
CC(=O)OCC1=C(C(=O)O)N2C(=O)C(NC(=O)CSC(=O)N(C)C)C2SC1 ; read-out: MIC ; result: 63 µg/mL
Cc1cc2c(c(O)c1C(=O)NCC(=O)O)-c1c(cc3c(c1O)C(=O)c1cc(OCC(=O)O)cc(O)c1C3=O)[C@H](O)[C@H]2O[C@@H]1O[C@H](C)[C@H](O)[C@H](O[C@@H]2OC[C@@H](O)[C@H](O)[C@H]2O)[C@H]1O ; strain: IAM 4514 ; read-out: MIC ; result: 100 µg/mL
CCCCCCCCCCCCCCCC(=O)NC1CCC(O)NC(=O)C2C(O)C(C)CN2C(=O)C(C(O)CC(N)=O)NC(=O)C(C(O)Cc2ccc(O)c(OS(=O)(=O)O)c2)NC(=O)C2CC(O)CN2C(=O)C(C(C)O)NC1=O ; strain: YC203 ; read-out: MIC50 ; result: >2.5 µg/mL
Cn1ccc(C(Cc2ccc([N+](=O)[O-])cc2)n2ccnc2)c1 ; read-out: MIC ; result: 150 µM
CCCCCCCCCCCCCC[C@@H]1CCCN1C ; strain: IP960-67 ; read-out: MIC ; result: 6.25 µg/mL
CC(=O)N1CCC(n2cc(-c3nc(-c4ccc(Cl)cc4)n[nH]3)nn2)CC1 ; read by: agar ; read-out: MIC ; result: >200 µg/mL
Cc1cc(-c2c(N=O)c(C)nn2C)no1 ; read-out: MFC ; result: 1.6 µM
Cc1cc(NC(=O)c2ccccc2NC(=O)COc2cccc(Cl)c2Cl)no1 ; strain: ATCC90112 ; read-out: MIC ; result: >100 µg/mL
CC(=O)N1CCC(n2cc(-c3nc(-c4ccc(C)cc4)n[nH]3)nn2)CC1 ; read by: agar ; read-out: MIC ; result: 140 µg/mL
CCCn1nc(-c2cc(C)on2)c(N=O)c1C ; read-out: MIC ; result: 2.4 µM
Cc1cc(NC(=O)c2ccccc2NC(=O)COc2ccccc2)no1 ; strain: ATCC90112 ; read-out: MIC ; result: >100 µg/mL
Cc1ccc(C(Cc2ccc(N)cc2)n2ccnc2)s1 ; read-out: MIC ; result: 37.5 µM
CCCCc1oc2ccccc2c1C(=O)c1cc(I)c(OCCN(CC)CC)c(I)c1 ; strain: JEC21 ; read-out: EC50 ; result: <5 µM
COC(=O)[C@H]1[C@@H]2C[C@@H](O[C@@H]3O[C@H](C)[C@@H](O)[C@H](N)[C@@H]3O)/C=C/C=C/C=C/C=C/C=C/C=C/C=C/[C@H](C)[C@@H](O)[C@H](C)[C@H](C)OC(=O)C[C@H](O)C[C@H](O)[C@@H](O)CC[C@H](O)C[C@H](O)C[C@](O)(C[C@@H]1O)O2 ; read-out: MFC ; result: 0.8 µM
CSC1NN=C(c2snnc2C)N1c1ccc2ccccc2c1 ; strain: PLM 589 ; read-out: MIC ; result: 25 µg/mL
O=C1S/C(=C\c2ccc3ccccc3n2)C(=O)N1CC(O)(Cn1nccn1)c1ccc(F)cc1F ; read-out: MIC80 ; result: 8.1 µg/mL
Cc1nnsc1-c1n[nH]c(=S)n1-c1ccc2ccccc2c1 ; strain: PLM 589 ; read-out: MIC ; result: 6.25 µg/mL
CN[C@@H]1[C@H](O[C@@H]2OC[C@@H](O)[C@H](O)[C@H]2O)[C@@H](O)[C@H](O[C@H]2c3c(c(O)c(C(=O)N[C@H](C)C(=O)O)c(C)c3[N+](=O)[O-])-c3c(cc4c(c3O)C(=O)c3cc(OC)cc(O)c3C4=O)[C@@H]2O)O[C@@H]1C ; strain: IAM 4514 ; read-out: MIC ; result: >100 µg/mL
Cc1nnsc1C(=O)NNC(=S)Nc1ccc2ccccc2c1 ; strain: PLM 589 ; read-out: MIC ; result: 12.5 µg/mL
Cc1cc2c(c(O)c1C(=O)NCC(=O)O)-c1c(cc3c(c1O)C(=O)c1cc(OCC(N)=O)cc(O)c1C3=O)[C@H](O)[C@H]2O[C@@H]1O[C@H](C)[C@H](O)[C@H](O[C@@H]2OC[C@@H](O)[C@H](O)[C@H]2O)[C@H]1O ; strain: IAM 4514 ; read-out: MIC ; result: >100 µg/mL
Cc1nc(C)c(-c2n[nH]c(=S)n2-c2ccc3ccccc3c2)s1 ; strain: PLM 589 ; read-out: MIC ; result: 3.12 µg/mL
C[C@@H]1CCC2(OC1)OC1CC3C4C[C@H](OC5O[C@@H](CO)[C@H](O)[C@@H](O)[C@@H]5O)[C@H]5C[C@@H](OC6O[C@H](CO)[C@@H](O)[C@H](O)[C@H]6O)CC[C@]5(C)C4CC[C@]3(C)C1[C@@H]2C ; strain: ATCC 90113 ; read-out: EC50 ; result: 8.5 µg/mL

A second listing of 6 rows from above:

| SMILES | strain | read by | read-out | result |
|---|---|---|---|---|
| CC(=O)N1CCC(n2cc(-c3nc(-c4ccc(C)cc4)n[nH]3)nn2)CC1 |  | agar | MIC | 140 µg/mL |
| C[C@H]1[C@H](O)[C@@H](C)/C=C/C=C/C=C/C=C/C=C/C=C/C=C/[C@H](O[C@@H]2O[C@H](C)[C@@H](O)[C@H](N)[C@@H]2O)C[C@@H]2O[C@](O)(C[C@@H](O)C[C@@H](O)CC[C@H](O)[C@@H](O)C[C@@H](O)CC(=O)O[C@H]1C)C[C@H](O)[C@H]2C(=O)O | ATCC 32608 | broth dilution | MIC | 0.05 µM |
| Cc1nnsc1C(=O)NNC(=S)Nc1ccc2ccccc2c1 | PLM 589 |  | MIC | 12.5 µg/mL |
| Clc1ccc(CN(Cc2ccc(-c3ccccc3)cc2)n2ccnc2)c(Cl)c1 |  |  | MIC | 2.5 µM |
| CCCCc1oc2ccccc2c1C(=O)c1cc(I)c(OCCN(CC)CC)c(I)c1 | JEC21 |  | EC50 | <5 µM |
| CCC(C)CC(C)CCCCCCCCC(=O)NC1C[C@H](O)[C@@H](O)NC(=O)[C@@H]2[C@@H](O)[C@@H](C)CN2C(=O)[C@H]([C@H](O)CC(N)=O)NC(=O)[C@H](C(O)[C@H](O)c2ccc(O)cc2)NC(=O)[C@@H]2C[C@@H](O)CN2C(=O)[C@H]([C@@H](C)O)NC1=O | MY1051 |  | MIC | >128 µg/mL |